Molecular target: EBOV VP40 (Zaire ebolavirus, UniProt Q05128)

Amino acid sequences for entries named in this document (tags omitted). A change or cut given only in a name is not applied to a line headed by its entry.
UniProt Q05128: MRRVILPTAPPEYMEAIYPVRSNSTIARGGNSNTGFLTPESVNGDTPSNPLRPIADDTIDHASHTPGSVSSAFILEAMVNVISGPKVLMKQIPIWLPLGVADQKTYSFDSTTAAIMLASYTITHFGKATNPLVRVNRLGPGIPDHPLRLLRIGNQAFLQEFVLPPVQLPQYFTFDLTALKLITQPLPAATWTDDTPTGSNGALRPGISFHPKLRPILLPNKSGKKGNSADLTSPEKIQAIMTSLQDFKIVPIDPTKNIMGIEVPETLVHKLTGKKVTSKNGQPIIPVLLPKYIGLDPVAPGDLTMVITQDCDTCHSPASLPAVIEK

Row | Structure (SMILES) | effect on VP40 perimembrane | VP40 subcellular localization (fluorescent images) (150 and 300 nM)
1 | N#C[C@@]1(c2ccc3c(N)ncnn23)O[C@H](CO)[C@@H](O)[C@H]1O | neither | –
2 | CCC(CC)COC(=O)[C@H](C)N[P@](=O)(OC[C@H]1O[C@@](C#N)(c2ccc3c(N)ncnn23)[C@H](O)[C@@H]1O)Oc1ccccc1 [Remdesivir, remdesivir, reference compound] | neither | –
3 | NC(=O)c1cn([C@@H]2O[C@H](CO)[C@@H](O)[C@H]2O)c2ncnc(N)c12 [Sangivamycin, 4-amino-7-(β-D-ribofuranosyl)pyrrolo[2,3-d]pyrimidine-5-carboxamide] | – | homogenous VP40 subcellular localization
